Here are results for one molecule from ChEMBL document CHEMBL5528015, “Structure-based design of SARS-CoV-2 papain-like protease inhibitors” (Eur J Med Chem, 2024).

pEC50: −log10 of the molar value.

By pEC50 is commonly meant −log10 of the EC50, conventionally taken in molar units. A high value points to a low EC50.

The assay relates to SARS-CoV-2. Put plainly: microbe, parasite or virus in culture. As to conditions: Severe acute respiratory syndrome coronavirus 2, Caco-2, 24 h.

For `Cc1ccc(N)cc1C(=O)N[C@H](C)c1cccc2ccccc12`, the pEC50 is 4.59.
